From US4029881A, “Antibiotic 9-acyl-3"-thiomethoxymethyl-SF-837 composition and process for preparing the same” (Meiji Seika Co., Ltd., priority 1972, dated 1977)

assay: panel tests on the bitter taste; details: 10% by weight dry syrup in sucrose, 100-200 mg each; 10 persons; 0 undetectable, 1 negligible, 2 bitter (acceptable), 3 bitter (unacceptable), 4 bitter (objectionable)

Row | Compound | Mean Scores (bitter taste) [point]
1 | CCC(=O)OC1CC(=O)OC(C)CC=CC=CC(OC(C)=O)C(C)CC(CC=O)C(OC2OC(C)C(OC3CC(C)(O)C(OC(=O)CC)C(C)O3)C(N(C)C)C2O)C1OC (stereo not shown) [9-Acetyl-SF-837, reference compound] | 2.8
2 | CCC(=O)OC1CC(=O)OC(C)CC=CC=CC(OC(C)=O)C(C)CC(CC=O)C(OC2OC(C)C(OC3CC(C)(OCSC)C(OC(=O)CC)C(C)O3)C(N(C)C)C2O)C1OC (stereo not shown) [9-acetyl-3"-thiomethoxymethyl-SF-837] | 0.2
3 | CCC(=O)OC1C=CC=CCC(C)OC(=O)CC(OC(=O)CC)C(OC)C(OC2OC(C)C(OC3CC(C)(OCSC)C(OC(=O)CC)C(C)O3)C(N(C)C)C2O)C(CC=O)CC1C (stereo not shown) [9-propionyl-3"-thiomethoxymethyl-SF-837] | 0.2
4 | CO[C@@H]1[C@@H](O[C@@H]2O[C@H](C)[C@@H](O[C@H]3C[C@@](C)(O)[C@@H](OC(=O)CC(C)C)[C@H](C)O3)[C@H](N(C)C)[C@H]2O)[C@@H](CC=O)C[C@@H](C)[C@@H](O)/C=C/C=C/C[C@@H](C)OC(=O)C[C@H]1O [Leucomycin] | 1.9
